Experimental data: PubChem BioAssay AID504761 (Drosophila RNAi Screening Center, 2011)

Aim: 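Fly genes whose silencing reduces dengue virus type 2 infection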 (primary screen)
Cells: D.Mel-2 cells from Drosophila
Reagents: long dsRNA against Drosophila genes
Treatment: infection with dengue virus type 2; dose and infection time not stated
Read-out: 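Per well on two replicate plates, imaging gave the percent of cells positive for viral envelope protein, ranked by infection, and a nuclear count of cells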
Direction: infection score: higher = more virus-infected cells; cell count: higher = more cells in the well
Call rule: 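Very low infection ranking in both replicate wells (chance probability at most 0.065), then a retest showing infection dropped 1.5-fold or more at p below 0.05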
Calls: active = confirmed: knock-down lowers infection; inactive = not picked or not confirmed
The deposit covers about 22,000 reagents; this is an unselected part of those that have a named target and a result. Of all reagents, 116 (0.52%) are marked active. 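Calls depend on retest data that are not deposited; infection was ranked per plate without normalising between plates; the unit of the infection score is not given.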 Raw values vary from plate to plate and are shown uncorrected. The numbers tell different reagents against one gene apart. Not stated in the record: the amount of reagent, the time to read-out.

The opening 2 entries as a preview:
| target gene | dsRNA no. | infection score, replicate 1 | infection score, replicate 2 | cell count, replicate 1 | cell count, replicate 2 | Outcome |
| --- | --- | --- | --- | --- | --- | --- |
| CG10638 (GeneID 39424) | 1 | 3.77 | 17.9 | 6176 | 3198 | inactive |
| CG10638 (GeneID 39424) | 2 | 14.7 | 10.9 | 6891 | 6681 | inactive |

The listing, from the start:
| target gene | dsRNA no. | infection score, replicate 1 | infection score, replicate 2 | cell count, replicate 1 | cell count, replicate 2 | Outcome |
| --- | --- | --- | --- | --- | --- | --- |
| CG10638 (GeneID 39424) | 1 | 3.77 | 17.9 | 6176 | 3198 | inactive |
| CG10638 (GeneID 39424) | 2 | 14.7 | 10.9 | 6891 | 6681 | inactive |
| Rpt6 (GeneID 33105) | 1 | 10 | 1.58 | 6260 | 6081 | inactive |
| Rpt6 (GeneID 33105) | 2 | 18.1 | 8.2 | 5866 | 5686 | inactive |
| CG31528 (GeneID 318785) | 1 | 1.35 | 1.6 | 6500 | 3559 | inactive |
| CG40378 (retired record) (GeneID 3355048) | 1 | 4.33 | 8.88 | 6079 | 5977 | inactive |
| Acf (GeneID 43751) | 1 | 5.9 | 3.11 | 5933 | 6017 | inactive |
| Acf (GeneID 43751) | 2 | 17.6 | 8.65 | 5783 | 5836 | inactive |
| CG17660 (GeneID 33347) | 1 | 2.22 | 1.71 | 6256 | 6066 | inactive |
| CG2691 (GeneID 32320) | 1 | 4.14 | 3.24 | 6180 | 6445 | inactive |
| cdi (GeneID 42289) | 1 | 1.27 | 3.09 | 6636 | 6378 | inactive |
| cdi (GeneID 42289) | 2 | 17.9 | 14.4 | 5058 | 5706 | inactive |
| vir-1 (GeneID 34652) | 1 | 3.43 | 1.99 | 6445 | 6819 | inactive |
| vir-1 (GeneID 34652) | 2 | 1.38 | 1.71 | 6536 | 6616 | inactive |
| vir-1 (GeneID 34652) | 3 | 8.85 | 4.28 | 5896 | 6148 | inactive |
| CG31809 (GeneID 318954) | 1 | 11.3 | 0.84 | 5613 | 5842 | inactive |
| Tsc1 (GeneID 42862) | 1 | 2.65 | 2.82 | 4905 | 5364 | inactive |
| Tsc1 (GeneID 42862) | 2 | 25.9 | 28.9 | 4785 | 4635 | inactive |
| Lamtor3 (GeneID 35055) | 1 | 20.7 | 3.17 | 3784 | 6751 | inactive |
| PGAP5 (GeneID 34116) | 1 | 2.09 | 21.7 | 6211 | 5056 | inactive |
| PGAP5 (GeneID 34116) | 2 | 5.14 | 11.4 | 6712 | 6541 | inactive |
| MtnC (GeneID 42416) | 1 | 5.49 | 14.4 | 6027 | 2625 | inactive |
| Cpr67Fa1 (GeneID 39223) | 1 | 1.77 | 1.23 | 5936 | 6192 | inactive |
